Measurements from publication doi:10.1101/2025.11.04.686469, “Discovery of Host-Directed Small Molecules with Broad Anti-Leishmanial Efficacy” (bioRxiv, 2025).

These compounds were tested on intracellular L. donovani amastigotes (assay: Luminescent-based evaluation of intracellular anti-leishmanial activity in THP-1 macrophages). Conditions: 24h LC50 / Lum IC50 (Supplemental Table 2).
Type: cell-based, Leishmania donovani
Experimental: Luminescent strains, L. donovani LV82 expressing firefly luciferase (a kind gift from Dr. Abhay Satoskar, Ohio State University) and L. mexicana (NR-51210, ATCC) expressing renilla luciferase were used to evaluate the effect of the compounds in intracellular and extracellular conditions. Wild-type L. donovani LV82 (ATCC) were used for Giemsa staining based experiments. All parasites were cultured at 25°C and 5% CO2 in M199 media (Corning) supplemented with 10% FBS, 1% penicillin/streptomycin, and hemin (0.01 mg/mL), and used in experiments up to passage 15.
THP-1 cells were seeded in a 96 well plate (25,000 cells/well) overnight then differentiated with 150 nM phorbol 12-myristate 13-acetate (PMA) over 72 hours (Supplemental Figure 1). […] Briefly, promastigotes of a known cell density were resuspended in RPMI media (with 10% FBS, 1% P/S and 0.05 mM β-mercaptoethanol) and incubated with adhered THP-1 cells over 18 hours. After infection, cells were washed three times with fresh media to remove extracellular promastigotes.
Infected macrophages were then treated with compounds solubilized in DMSO ranging from 0.1-10 μM in concentrations. After 72 hours of treatment, the viability of the amastigotes within macrophages was determined using Promega firefly luminescence assay (Cat E1500) or Pierce Renilla luciferase assay (Cat 16166) for L. donovani and L. mexicana strains, respectively. Briefly, media was removed, and cells were lysed with the assay lysis buffer. The luciferase substrate was then incubated with the lysed cells for 10 min at room temperature and luminescence of live Leishmania was measured in a white opaque 96 well plate using a Biotek plate reader.

SMILES | Selectivity
Cl.NC1CCN(c2ccc(-n3nc(C(F)(F)F)c4ccc(-c5ccc(C(F)(F)F)cc5)cc43)cc2)C1 (stereo not drawn) [Compound 141] | 2.1
FC(F)(F)c1ccc(-c2ccc(-c3cc(C(F)(F)F)nn3-c3ccc(OC4CCNC4)cc3)cc2)cc1 (stereo not drawn) [Compound 144] | < 0.5
CC(C)(C)c1ccc(-c2nc(C(F)(F)F)cn2-c2ccc([N+](=O)[O-])cc2)cc1 [Compound 146] | > 11.4
CC(C)(C)c1ccc(-c2nc(C(F)(F)F)cn2-c2ccc(N)cc2)cc1 [Compound 149] | 3.2
CC(C)(C)OC(=O)NCC(=O)Nc1ccc(-n2cc(C(F)(F)F)nc2-c2ccc(C(C)(C)C)cc2)cc1 [Compound 151] | < 3.2
Nc1ccc(-c2cc(C(F)(F)F)nn2-c2ccc(-c3ccc(C(F)(F)F)cc3)cc2)cc1 [Compound 152] | < 4.4
O=[N+]([O-])c1ccc(-n2cc(C(F)(F)F)nc2-c2ccc(-c3ccc(C(F)(F)F)cc3)cc2)cc1 [Compound 154] | 8.9
NCC(=O)Nc1ccc(-c2cc(C(F)(F)F)nn2-c2ccc(-c3ccc(C(F)(F)F)cc3)cc2)cc1 [Compound 155] | 1.5
CC(C)(C)c1ccc(-c2nc(C(F)(F)F)cn2-c2ccc(NC(=O)CN)cc2)cc1 [Compound 157] | < 2.8
NC1CCN(c2ccc(-n3nc(C(F)(F)F)cc3-c3ccncc3)cc2)C1 (stereo not drawn) [Compound 168] | > 5.0
CS(=O)(=O)c1ccc(-n2nc(C(F)(F)F)cc2-c2ccc(-c3ccc(C(F)(F)F)cc3)cc2)cc1 [Compound 179] | < 4.5
O=C(NCc1cccc(F)c1)c1ccc(-n2cc(C(F)(F)F)nc2-c2ccc(-c3ccc(C(F)(F)F)cc3)cc2)c(F)c1 [Compound 181] | < 2.9
CC(C)(C)OC(=O)NC1CCN(C(=O)c2ccc(-n3cc(C(F)(F)F)nc3-c3ccc(-c4ccc(C(F)(F)F)cc4)cc3)c(F)c2)C1 (stereo not drawn) [Compound 182] | 3.0
CC(=O)c1ccc(-n2cc(C(F)(F)F)nc2-c2ccc(-c3ccccc3)cc2)cc1 [Compound 184] | > 10
NS(=O)(=O)c1ccc(-n2nc(C(F)(F)F)cc2-c2ccc(-c3ccc(C(F)(F)F)cc3)cc2)cc1 [Compound 188] | 2.9
CNS(=O)(=O)Cc1ccc(-n2nc(C(F)(F)F)cc2-c2ccc(-c3ccc(C(F)(F)F)cc3)cc2)cc1 [Compound 191] | < 1.2
NCC(=O)Nc1ccc(-n2cc(C(F)(F)F)nc2-c2ccc(Br)cc2)cc1 [Compound 195] | < 3.9
NC1CCN(C(=O)c2ccc(-n3cc(C(F)(F)F)nc3-c3ccc(-c4ccc(C(F)(F)F)cc4)cc3)c(F)c2)C1 (stereo not drawn) [Compound 199] | 7.2
CC(C)(C)OC(=O)NC1CCN(c2ccc(-n3nc(C(F)(F)F)cc3C(C)(C)C)cc2)C1 (stereo not drawn) [Compound 202] | > 5.9
CC(C)(C)c1cc(C(F)(F)F)nn1-c1ccc(N2CCC(N)C2)cc1 (stereo not drawn) [Compound 203] | 4.1
Cl.NC1CCN(c2ccc(-n3nncc3-c3ccc(C(F)(F)F)cc3)cc2)C1 (stereo not drawn) [Compound 204] | < 3.7
Cl.FC(F)(F)c1ccc(-c2ccc(-c3cc(C(F)(F)F)nn3-c3ccc(N4CCNCC4)cc3)cc2)cc1 [Compound 208] | 5.4

SMILES | Selectivity
Cl.FC(F)(F)c1cc(-c2ccc(-c3cccs3)cc2)n(-c2ccc(N3CCNCC3)cc2)n1 [Compound 209] | 3.4
Cl.FC(F)(F)c1cc(-c2ccc(-c3ccsc3)cc2)n(-c2ccc(N3CCNCC3)cc2)n1 [Compound 210] | 4.3
Cl.FC(F)(F)c1cc(-c2ccc(C3CC3)cc2)n(-c2ccc(N3CCNCC3)cc2)n1 [Compound 211] | 6.3
FC(F)(F)c1ccc(-c2ccc(-c3cc(C(F)(F)F)nn3-c3ccc(N4CCNCC4)cc3)cc2)cc1 [Compound 220] | 11.8
CC(C)(C)OC(=O)NC1CCN(c2ccc(-n3nc(C4CCCCC4)cc3C(F)(F)F)cc2)C1 (stereo not drawn) [Compound 229] | 1.5
CC(C)(C)OC(=O)NC1CCN(c2ccc(-n3nc(C(F)(F)F)cc3C3CCCCC3)cc2)C1 (stereo not drawn) [Compound 230] | < 1.0
CN(C)c1ccc(-c2cc(C(F)(F)F)nn2-c2ccc(N3CCC(N)C3)cc2)cc1 (stereo not drawn) [Compound 231] | 6.2
NC1CCN(c2ccc(-n3nc(C4CCCCC4)cc3C(F)(F)F)cc2)C1 (stereo not drawn) [Compound 232] | 5.6
FC(F)(F)c1ccc(-c2ccc(-c3nc(C(F)(F)F)cn3-c3ccc(NC4CCNC4)cc3)cc2)cc1 (stereo not drawn) [Compound 246] | 1.4
NC1CCN(c2ccc(-n3nc(C(F)(F)F)cc3-c3ccc(F)cc3)cc2)C1 (stereo not drawn) [Compound 248] | 5.6
FC(F)(F)c1cc(-c2cccnc2)n(-c2ccc(Br)cc2)n1 [Compound 249] | < 5.0
FC(F)(F)c1ccc(-c2cc(C(F)(F)F)nn2-c2ccc(NC3CCNC3)cc2)cc1 (stereo not drawn) [Compound 252] | 6.2
CC(C)(C)OC(=O)N1CCC(Nc2ccc(-n3nc(C(F)(F)F)cc3-c3ccccc3C(F)(F)F)cc2)C1 (stereo not drawn) [Compound 259] | < 2.4
COc1ccc(-c2cc(C(F)(F)F)nn2-c2ccc(NC3CCNC3)cc2)cc1OC (stereo not drawn) [Compound 260] | 3.2
FC(F)(F)c1cc(-c2ccc(Cl)c(Cl)c2)n(-c2ccc(NC3CCNC3)cc2)n1 (stereo not drawn) [Compound 261] | 7.3
FC(F)(F)c1cc(-c2ccco2)n(-c2ccc(NC3CCNC3)cc2)n1 (stereo not drawn) [Compound 273] | 3.2
FC(F)(F)c1cc(C(F)(F)F)n(-c2ccc(Br)cc2)n1 [Compound 276] | < 0.6
Cl.NC1CCN(c2ccc(-n3nc(C(F)F)cc3-c3ccc(-c4ccc(C(F)(F)F)cc4)cc3)cc2)C1 (stereo not drawn) [Compound 281] | 7.2
FC(F)(F)c1ccc(-c2cc(C(F)(F)F)nn2CCNC2CCN(Cc3ccccc3)C2)cc1 (stereo not drawn) [Compound 294] | < 2.8
FC(F)(F)c1ccc(-c2nc(C(F)(F)F)cn2-c2ccc(NC3CCNC3)cc2)cc1 (stereo not drawn) [Compound 296] | 4.3
NCC(=O)Nc1ccc(-n2cc(C(F)(F)F)nc2-c2ccc(OC(F)(F)F)cc2)cc1 [Compound 299] | < 3.2
FC(F)(F)c1cc(C2CCCCC2)n(-c2ccc(NC3CCNC3)cc2)n1 (stereo not drawn) [Compound 312] | 5.3

SMILES | Selectivity
FC(F)(F)c1cc(C(F)(F)F)n(-c2ccc(NC3CCNC3)cc2)n1 (stereo not drawn) [Compound 314] | 8.0
CC(C)c1cc(C(F)(F)F)nn1-c1ccc(NC2CCNC2)cc1 (stereo not drawn) [Compound 315] | 7.6
CCc1cc(C(F)(F)F)nn1-c1ccc(NC2CCNC2)cc1 (stereo not drawn) [Compound 318] | 14.8
FC(F)(F)c1cc(C2CCCCC2)n(-c2ccc(NC3CCN(Cc4ccccc4)CC3)cc2)n1 [Compound 321] | 4.7
N#Cc1ccc(CN2CCC(Nc3ccc(-n4nc(C(F)(F)F)cc4C4CCCCC4)cc3)CC2)cc1 [Compound 323] | 3.2
NC1CCN(c2ccc(-n3nc(C(F)(F)F)cc3C3CCCCC3)cc2)CC1 [Compound 324] | 14.2
FC(F)(F)c1cn(-c2ccc(OC3CCNC3)cc2)c(-c2ccc(-c3ccccc3)cc2)n1 (stereo not drawn) [Compound 328] | 4.3
CC(C)(C)c1nc(C(F)(F)F)cn1-c1ccc(NC2CCNC2)cc1 (stereo not drawn) [Compound 330] | > 8.1
NCC(=O)Nc1ccc(-n2nc(C(F)(F)F)c3c2CCCC3)cc1 [Compound 331] | 4.7
O=C1CN(c2ccc(-n3cc(C(F)(F)F)nc3-c3ccc(C(F)(F)F)cc3)cc2)CCN1 [Compound 332] | 3.9
FC(F)(F)c1cc(C2CCCCC2)n(-c2ccc(N3CCC(NCc4ccccc4)CC3)cc2)n1 [Compound 336] | 6.6
Fc1cccc(CNC2CCN(c3ccc(-n4nc(C(F)(F)F)cc4C4CCCCC4)cc3)CC2)c1 [Compound 337] | 9.3
FC(F)(F)c1cc(C2CCCCC2)n(-c2ccc(NC3CCNCC3)cc2)n1 [Compound 339] | 10.4
NCC(=O)Nc1ccc(-n2nc(C(F)(F)F)cc2C2CCCCC2)cc1 [Compound 341] | 6.6
O=C(CNCc1cccc(F)c1)Nc1ccc(-n2nc(C(F)(F)F)cc2C2CCCCC2)cc1 [Compound 352] | < 2.9
O=C(CNCc1ccccc1)Nc1ccc(-n2nc(C(F)(F)F)cc2C2CCCCC2)cc1 [Compound 353] | 4.2
O=C(CNCc1ccc(O)cc1)Nc1ccc(-n2nc(C(F)(F)F)cc2C2CCCCC2)cc1 [Compound 355] | 10.5
FC(F)(F)c1cc(C2CCCCC2)n(-c2ccc(NC3CCN(Cc4ccccc4)C3)cc2)n1 (stereo not drawn) [Compound 356] | 7.6
Fc1cccc(CN2CCC(Nc3ccc(-n4nc(C(F)(F)F)cc4C4CCCCC4)cc3)C2)c1 (stereo not drawn) [Compound 357] | 10.7
N#Cc1ccc(CN2CCC(Nc3ccc(-n4nc(C(F)(F)F)cc4C4CCCCC4)cc3)C2)cc1 (stereo not drawn) [Compound 358] | < 1.3
Oc1ccc(CNC2CCN(c3ccc(-n4nc(C(F)(F)F)cc4C4CCCCC4)cc3)C2)cc1 (stereo not drawn) [Compound 362] | 9.0
FC(F)(F)c1cc(C2CCCCC2)n(-c2ccc(N3CCC(NCc4ccccc4)C3)cc2)n1 (stereo not drawn) [Compound 364] | 4.5
